Taken from: PubChem BioAssay AID624099 (ICCB-Longwood, 2012)
Here is a random part of about 21,000 reagents tested. Of all reagents, 497 (2.4%) were called active. 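Higher z means weaker E2 silencing; only reporter increases were scored, and knock-downs that hurt cell survival may mask genuine repressor factors.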

Screen: 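Host factors E2 relies on to silence an HPV18 LCR reporter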 (primary screen)
System: human C33A cervical carcinoma cells (HPV-negative) stably expressing BPV1 E2 and an HPV18 LCR luciferase reporter
Reagents: siRNA pool against human genes, 40 nM
Time to read-out: 72 h
Measurement: 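Per-well luciferase luminescence, z-scored on each plate against the plate mean and SD with control wells left out, then averaged across three replicate plates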
Scale: mean z-score and z-score: higher = stronger reporter signal, weaker E2 silencing
Active means: 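Hit if mean z-score reaches 2 and two or more of three replicate z-scores also reach 2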

What did the screen give for KRTAP9-4 (keratin associated protein 9-4)?
mean z-score: -0.73; z-score, replicate A: -0.37; z-score, replicate B: -0.96; z-score, replicate C: -0.86; call: inactive

Which result is listed for FBXO38 (F-box protein 38)?
mean z-score: -0.46; z-score, replicate A: -0.06; z-score, replicate B: -0.68; z-score, replicate C: -0.65; call: inactive

Which result is listed for RHO (rhodopsin)?
mean z-score: 0.13; z-score, replicate A: 0.47; z-score, replicate B: -0.07; z-score, replicate C: -0.02; call: inactive

With SLC61A1, what was measured?
mean z-score: -1.66; z-score, replicate A: -1.8; z-score, replicate B: -1.56; z-score, replicate C: -1.63; call: inactive

With AAGAB (alpha and gamma adaptin binding protein), what was measured?
mean z-score: 0.09; z-score, replicate A: -0.02; z-score, replicate B: 0.15; z-score, replicate C: 0.14; call: inactive

What did the screen give for CEP41 (centrosomal protein 41)?
mean z-score: -1.4; z-score, replicate A: -1.45; z-score, replicate B: -1.66; z-score, replicate C: -1.09; call: inactive

How did the screen score TRIM51EP (tripartite motif-containing 51E, pseudogene)?
mean z-score: 2.22; z-score, replicate A: 1.93; z-score, replicate B: 2.36; z-score, replicate C: 2.38; call: active

For C1orf56 (chromosome 1 open reading frame 56), what does the deposit list?
mean z-score: 1.12; z-score, replicate A: 0.77; z-score, replicate B: 1.14; z-score, replicate C: 1.44; call: inactive

What did the screen give for TNRC18P3 (trinucleotide repeat containing 18 pseudogene 3)?
mean z-score: 0.76; z-score, replicate A: 0.85; z-score, replicate B: 1.01; z-score, replicate C: 0.44; call: inactive

For OR6K3 (olfactory receptor family 6 subfamily K member 3), what was measured?
mean z-score: -0.36; z-score, replicate A: -0.89; z-score, replicate B: -0.05; z-score, replicate C: -0.16; call: inactive

For PSMB9 (proteasome 20S subunit beta 9), what was measured?
mean z-score: 2.84; z-score, replicate A: 3.04; z-score, replicate B: 2.71; z-score, replicate C: 2.76; call: active

With C11orf40 (chromosome 11 putative open reading frame 40), what was measured?
mean z-score: 0.85; z-score, replicate A: 1.31; z-score, replicate B: 0.43; z-score, replicate C: 0.8; call: inactive

Copied from the entries so far, 2 entries:
KRTAP9-4 (keratin associated protein 9-4) — mean z-score = -0.73; z-score, replicate A = -0.37; z-score, replicate B = -0.96; z-score, replicate C = -0.86; call = inactive
FBXO38 (F-box protein 38) — mean z-score = -0.46; z-score, replicate A = -0.06; z-score, replicate B = -0.68; z-score, replicate C = -0.65; call = inactive
